The source of these data is article PMC12561106, “STOP Strategy to Inhibit P. falciparum and S. aureus Growth: Molecular Mechanism Studies on Purposely Designed Hybrids” (Antibiotics, 2025).

This series has as its system WS1 cells (human-derived fibroblasts). The experiment in a line: cell viability and proliferation assay (CCK-8/WST8). Type of series: cell-based. The settings on record: for SI, Vero/D10: selectivity index CC50 / IC50 P. falciparum D10; for SI, Vero/W2: selectivity index CC50 / IC50 P. falciparum W2; for SI, Vero/S. aureus: selectivity index CC50 / IC50 S. aureus ATCC 25923. The method, then: WS1 cells (ATCC CRL-1502) were selected as a model system to investigate the effect of PTZ-quinoline hybrid compounds on human-derived fibroblasts. Briefly, cells were cultured in DMEM-High glucose supplemented with 10% fetal bovine serum (FBS) (Carlo Erba Reagents, Milan, Italy), 100 U/mL penicillin, and 100 µg/mL streptomycin at 37 °C with 5% CO2. For experiments, cells were seeded into 96-well plates at 0.7 × 10^4 cells/well, and incubated at 37 °C for 24 h. […] Cell viability was assessed by a WST8-based assay according to the manufacturer’s instructions (CCK-8, Cell Counting Kit-8, Dojindo Molecular Technologies, Rockville, MD, USA). After 48 h of incubation, culture medium was removed from each well, the monolayer was washed with PBS, and 100 µL of fresh medium containing 10 µL of CCK-8 solution was added. Following a 2 h incubation at 37 °C, the OD450nm was read, and data were expressed as the percentage of cell viability relative to the untreated controls. The CC50 was obtained on the corresponding dose–response curves generated as previously reported for IC50 values. Experiments were carried out in triplicate in three biological replicates.

Bounds are passed on as bounds.

On to `Clc1ccc2c(N3CCN(CCCN4c5ccccc5Sc5ccccc54)CC3)ccnc2c1` [Compound 1, 10-(3-(4-(7-chloroquinolin-4-yl)piperazin-1-yl)propyl)-10H-phenothiazine], for which the “SI, Vero/D10” value is more than 39.7 and the “SI, Vero/W2” value was more than 43.1.
In the same order, the values of `Clc1ccc2c(N3CCN(CCCCCN4c5ccccc5Sc5ccccc54)CC3)ccnc2c1` [Compound 3, 10-(5-(4-(7-chloroquinolin-4-yl)piperazin-1-yl)pentyl)-10H-phenothiazine] are more than 42.7 and more than 101.0.
Regarding `Clc1ccc2c(NCCn3cc(CN4c5ccccc5Sc5ccccc54)nn3)ccnc2c1` [Compound 4a, N-(2-(4-((10H-phenothiazin-10-yl)methyl)-1H-1,2,3-triazol-1-yl)ethyl)-7-chloroquinolin-4-amine], the “SI, Vero/D10” value is 126.1; the “SI, Vero/W2” value is 89.6; the “SI, Vero/S. aureus” value is given as 2.4.
In the same order, the values of `Clc1ccc2c(c1)N(Cc1cn(CCNc3ccnc4cc(Cl)ccc34)nn1)c1ccccc1S2` [Compound 4b, 7-chloro-N-(2-(4-((2-chloro-10H-phenothiazin-10-yl)methyl)-1H-1,2,3-triazol-1-yl)ethyl)quinolin-4-amine] are 81.1, 82.1 and 2.6.
In the same order, the values of `Clc1ccc2c(NCCCn3cc(CN4c5ccccc5Sc5ccccc54)nn3)ccnc2c1` [Compound 5a, N-(3-(4-((10H-phenothiazin-10-yl)methyl)-1H-1,2,3-triazol-1-yl)propyl)-7-chloroquinolin-4-amine] are 40.3, 67.7 and 1.8.
For `Clc1ccc2c(c1)N(Cc1cn(CCCNc3ccnc4cc(Cl)ccc34)nn1)c1ccccc1S2` [Compound 5b, 7-chloro-N-(3-(4-((2-chloro-10H-phenothiazin-10-yl)methyl)-1H-1,2,3-triazol-1-yl)propyl)quinolin-4-amine], the “SI, Vero/D10” value was 151.6; the “SI, Vero/W2” value is 163.9; the “SI, Vero/S. aureus” value was found to be 4.4.
For `Clc1ccc2c(NCCCCCn3cc(CN4c5ccccc5Sc5ccccc54)nn3)ccnc2c1` [Compound 6a, N-(5-(4-((10H-phenothiazin-10-yl)methyl)-1H-1,2,3-triazol-1-yl)pentyl)-7-chloroquinolin-4-amine], the “SI, Vero/D10” value turned out to be 148.1 and the “SI, Vero/W2” value was 128.6.
`Clc1ccc2c(c1)N(Cc1cn(CCCCCNc3ccnc4cc(Cl)ccc34)nn1)c1ccccc1S2` [Compound 6b, 7-chloro-N-(5-(4-((2-chloro-10H-phenothiazin-10-yl)methyl)-1H-1,2,3-triazol-1-yl)pentyl)quinolin-4-amine]: the “SI, Vero/D10” value was 57.0; the “SI, Vero/W2” value is recorded as 186.6; the “SI, Vero/S. aureus” value is on record as 1.4.
As for `Clc1ccc2c(N3CCN(CCCn4cc(CN5c6ccccc6Sc6ccccc65)nn4)CC3)ccnc2c1` [Compound 8, 10-((1-(3-(4-(7-chloroquinolin-4-yl)piperazin-1-yl)propyl)-1H-1,2,3-triazol-4-yl)methyl)-10H-phenothiazine], the “SI, Vero/D10” value is given as more than 7.9 and the “SI, Vero/W2” value was more than 46.1.
